Measurements reported in paper doi:10.1101/2025.06.18.660159 (bioRxiv, 2025).

Target: the molecule itself
Assay: native gel or EMSA

B1: STING (natural protein, human (endogenous in HUVEC), UniProt Q86WV6 1-379, looked up)
chain: MPHSSLHPSIPCPRGHGAQKAALVLLSACLVTLWGLGEPPEHTLRYLVLHLASLQLGLLLNGVCSLAEELRHIHSRYRGSYWRTVRACLGCPLRRGALLLLSIYFYYSLPNAVGPPFTWMLALLGLSQALNILLGLKGLAPAEISAVCEKGNFNVAHGLAWSYYIGYLRLILPELQARIRTYNQHYNNLLRGAVSQRLYILLPLDCGVPDNLSMADPNIRFLDKLPQQTGDHAGIKDRVYSNSIYELLENGQRAGTCVLEYATPLQTLFAMSQYSQAGFSREDRLEQAKLFCRTLEDILADAPESQNNCRLIAYQEPADDSSFSLSQEVLRHLRQEEKEEVTVGSLKTSAVPSTSTMSQEPELLISGMEKPLPLRTDFS
In the case of B1, the “stoichiometry N” value is reported as 2.
